This is an account of results in article PMC8383118.

The data set deals with ComR S. mutans + XIP S. mutans. Nature of the data set: EMSA. The conditions noted are these: 8 uM XIP, 100 ng FAM-DNA, 15-30 min incubation, 5% native PAGE, 100 V, 50 min, 4 C, recombinant protein, protein details: His-tag removed with thrombin, label: 5' FAM (reverse primer), probe letters rebuilt from the primers and the genome. (In general: In EMSA bound probe runs differently from free probe, usually more slowly.)

Construct, isoform or probe ends are uncertain for at least one entry.

Regarding “CCTGTTATTCTCCTTTCTTTTTGATATCATTCATTATAAATGATCCTTCAAAAAAAGAACAGGACATTTATGTCCCGTTCTGAGAATCTTTTTGCCATTCTTTCTCCAAATTTTCTCTTAAATTAATGTTTTCTGTTAACTGGGCAAATAAGATAGCAGCATCATAGCTCTTTTTAGCTTCCGCATAATCTTTTTCAACAAATAAATGATGCTTCCATGTCAGAAGATTAACAATAGGCTTTTTTTGAAAATCATGAGTTCTATCCATGATTTTATTGCTGACAGCAATAAGCTGCTTAACAAAATCATATTTTTTCAATTCTAAGAGGAGTCCAAAATTATTCAATAAAACATTATTTAAAACGAAAAGATCTTCCAATGGAAGGCAGTCTACCTGCTT (double strand) [comS promoter probe (PcomS)]”, the binding result (4 uM ComR, 100 ng DNA, no Prx) was “binds” and the binding result (Prx D32A (P3) present, not in complex, no inhibition in any of the three orders of addition) is “binds”.
